In-gel DMS probing of monomeric and dimeric HIV-1 RNA

Source: Ye et al. 2022 (doi:10.1038/s41594-022-00746-2), supplementary data.

RNA: 5' end of the HIV-1 NL4-3 genome, made in vitro. Positions 1-437 read:
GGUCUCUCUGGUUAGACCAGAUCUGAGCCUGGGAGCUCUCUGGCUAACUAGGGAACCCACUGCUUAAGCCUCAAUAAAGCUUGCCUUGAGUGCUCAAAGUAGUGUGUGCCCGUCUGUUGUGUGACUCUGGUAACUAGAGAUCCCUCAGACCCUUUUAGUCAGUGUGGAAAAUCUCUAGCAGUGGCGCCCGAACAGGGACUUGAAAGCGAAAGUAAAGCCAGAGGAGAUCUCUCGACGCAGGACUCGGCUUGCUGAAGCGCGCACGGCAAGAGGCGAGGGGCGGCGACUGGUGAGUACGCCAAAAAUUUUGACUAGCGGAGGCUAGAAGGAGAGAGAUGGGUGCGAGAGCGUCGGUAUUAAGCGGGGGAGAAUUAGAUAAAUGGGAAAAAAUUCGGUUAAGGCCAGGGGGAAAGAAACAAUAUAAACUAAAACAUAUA

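Randomly mutated transcripts starting with one, two or three G (1G, 2G, 3G), capped or uncapped, were folded for 30 min at 37 °C. High salt was 300 mM KCl and 5 mM MgCl2, low salt 40 mM KCl and 0.1 mM MgCl2; monomer and dimer were parted on a native gel. Gel slices were treated with 170 mM dimethyl sulfate for 15 min at 37 °C and read by mutational profiling against an ethanol control.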

Values are winsor-normalised DMS reactivities of A and C; higher means more reactive, usually unpaired.
Sample: 3G capped high-salt dimer.
One numbering serves 1G, 2G and 3G.
A position is written with its base.

position	3G capped high-salt dimer
A19	0.03
C23	1.22
C28	0.03
A34	1.05
C40	0.03
A50	0.11
A55	0.19
C56	0.03
C63	0.49
A74	0.76
A76	0.24
C85	0.26
C95	0.39
A96	0.28
A97	0.52
A98	0.54
C114	0.19
C125	0.06
C127	0.03
A138	0.11
A140	0.35
C142	0.06
A147	0.42
C150	0.04
C152	0.76
A157	0.91
C160	0.07
A161	0.46
A168	0.43
A169	0.68
A170	0.47
A171	0.41
C179	0.95
A180	0.67
C189	0.07
A191	0.38
A198	0.52
C199	0.44
A215	0.61
A220	0.20
C229	0.17
C238	0.46
C243	0.03
A255	0.45
C260	0.31
A271	0.49
A286	0.60
A293	0.84
A296	0.57
C297	0.14
C300	0.07
A303	0.07
A304	0.14
A305	0.68
A314	0.03
C316	0.05
A324	0.09
A326	0.91
A332	0.49
A336	0.64
C343	0.34
A347	0.21
C349	0.27
C352	0.40
A356	0.95
A359	0.52
C362	0.41
A368	0.85
A370	0.53
A374	0.48
A386	1.32
A388	0.08
A389	0.16
A399	0.22
A404	0.27
A411	0.87
A416	0.48
A423	0.42
A425	0.52
C426	0.77
A430	0.52
A437	0.03

Excerpt, the final 11 entries:

position,3G capped high-salt dimer
A388,0.08
A389,0.16
A399,0.22
A404,0.27
A411,0.87
A416,0.48
A423,0.42
A425,0.52
C426,0.77
A430,0.52
A437,0.03